A mixed list of measured activities; the numbers were collected in NIAID ChemDB.

Shared fields: whole-cell or culture tests; agent: Aspergillus fumigatus; read-out: zone

Zones are inhibition diameters on agar. Neighbouring rows are from separate reports. Two numbers with a dash give a range or band. An empty or dashed field is not shown.

{"structure": "CCOC(=O)C1=NN(c2ccccc2)C2=Nc3nccc(-c4nn(-c5ccccc5)cc4-c4ccc([N+](=O)[O-])cc4)c3C(=O)C12", "dose": "1.25 mg/mL", "method": "agar diffusion / agar", "result": "9 mm"}
{"structure": "N#Cc1ccc(Nc2nc(Oc3ccnc4ccccc34)nc(N3CCCCC3)n2)cc1C(F)(F)F", "dose": "100 µg/mL", "method": "agar", "strain": "MTCC 343", "result": "<10 mm"}
{"structure": "CCC(C)CCCCCCCCCCC(=O)N[C@H]1C[C@@H](O)[C@@H](SCC(=O)OC)NC(=O)C2[C@@H](O)[C@@H](C)CN2C(=O)C(CO)NC(=O)C([C@H](O)C(O)c2ccc(O)cc2)NC(=O)NC(=O)[C@@H]2C[C@@H](O)CN2C(=O)[C@H]([C@@H](C)O)NC1=O", "dose": "1 mg/mL", "method": "agar", "strain": "AF-1", "result": "20 mm"}
{"structure": "C[C@@H]1[C@@H](COCC(=O)O)C[C@@H](O[C@H]2[C@H](O)[C@@H](N(Cc3ccc([N+](=O)[O-])cc3)CC(O)C[N+](C)(C)C)[C@H](O[C@H]3[C@H](O)[C@@H](N(Cc4ccc([N+](=O)[O-])cc4)CC(O)C[N+](C)(C)C)[C@H](C)O[C@@H]3COCC(=O)O)O[C@@H]2COCC(=O)O)[C@H](N(Cc2ccc([N+](=O)[O-])cc2)CC(O)C[N+](C)(C)C)[C@H]1O", "dose": "1 mg/mL", "method": "agar diffusion", "strain": "RCMB 02568", "result": "20.5 mm"}
{"structure": "N#Cc1ccc(Nc2nc(Oc3ccnc4ccccc34)nc(N3CCN(Cc4ccccc4)CC3)n2)cc1C(F)(F)F", "dose": "100 µg/mL", "method": "agar", "strain": "MTCC 343", "result": "<10 mm"}
{"structure": "Cc1ccc(CN(CC(O)C[N+](C)(C)C)[C@@H]2[C@@H](O)[C@H](O[C@@H]3O[C@H](COCC(=O)O)[C@@H](O[C@@H]4C[C@H](COCC(=O)O)[C@@H](C)[C@H](O)[C@H]4N(Cc4ccc(C)cc4)CC(O)C[N+](C)(C)C)[C@H](O)[C@H]3N(Cc3ccc(C)cc3)CC(O)C[N+](C)(C)C)[C@@H](COCC(=O)O)O[C@H]2C)cc1", "dose": "1 mg/mL", "method": "agar diffusion", "strain": "RCMB 02568", "result": "13.4 mm"}
{"structure": "Nc1ccccc1C(=O)Nc1ccc(Cl)cc1", "dose": "25 µg/mL", "method": "agar diffusion", "strain": "RCMB 02003", "result": "8.4 mm"}
{"structure": "Fc1ccc2c(c1)Sc1cccnc1N2CCCCN1c2ccc(F)cc2Sc2cccnc21", "dose": "100 µg/mL", "strain": "MTCC 343", "result": "10 mm"}
{"structure": "CCN1CCN(c2nc(Nc3ccc(C#N)c(C(F)(F)F)c3)nc(Oc3ccnc4ccccc34)n2)CC1", "dose": "100 µg/mL", "method": "agar", "strain": "MTCC 343", "result": "<10 mm"}
{"structure": "CCC(C)CCCCCCCCCCC(=O)N[C@H]1C[C@@H](O)[C@@H](OC)NC(=O)C2[C@@H](O)[C@@H](C)CN2C(=O)C(CO)NC(=O)C([C@H](O)C(OC)c2ccc(O)cc2)NC(=O)NC(=O)[C@@H]2C[C@@H](O)CN2C(=O)[C@H]([C@@H](C)O)NC1=O", "dose": "5 mg/mL", "method": "agar", "strain": "AF-1", "result": "30 mm"}
{"structure": "Fc1ccc2c(c1)Sc1cccnc1N2CCCCCCN1c2ccc(F)cc2Sc2cccnc21", "dose": "100 µg/mL", "strain": "MTCC 343", "result": "11 mm"}
{"structure": "Cc1ccc(NC(=O)c2ccccc2N)cc1", "dose": "25 µg/mL", "method": "agar diffusion", "strain": "RCMB 02003", "result": "7.2 mm"}
{"structure": "CC(=O)Nc1ccc(F)cc1Sc1ncccc1[N+](=O)[O-]", "dose": "100 µg/mL", "strain": "MTCC 343", "result": "16 mm"}
{"structure": "CCC(C)CCCCCCCCCCC(=O)N[C@H]1C[C@@H](O)[C@@H](SCC(=O)OC)NC(=O)C2[C@@H](O)[C@@H](C)CN2C(=O)C(CO)NC(=O)C([C@H](O)C(SCC(=O)OC)c2ccc(O)cc2)NC(=O)NC(=O)[C@@H]2C[C@@H](O)CN2C(=O)[C@H]([C@@H](C)O)NC1=O", "dose": "2 mg/mL", "method": "agar", "strain": "AF-1", "result": "20 mm"}
{"structure": "c1ccc2c(c1)Sc1cccnc1N2CCCCCCN1c2ccccc2Sc2cccnc21", "dose": "100 µg/mL", "strain": "MTCC 343", "result": "10 mm"}
{"structure": "N#Cc1ccc(Nc2nc(Oc3cccc4cccnc34)nc(N3CCCCC3)n2)cc1C(F)(F)F", "dose": "100 µg/disc", "method": "agar diffusion / agar", "strain": "MTCC 343", "result": "21 mm"}
{"structure": "Cc1ccc(-n2cc(-c3ccc([N+](=O)[O-])cc3)c(-c3ccon3)n2)cc1", "dose": "2.5 mg/mL", "method": "agar diffusion / agar", "result": "14 mm"}
{"structure": "COc1cc(CN(CC(O)C[N+](C)(C)C)[C@@H]2[C@@H](O)[C@H](O[C@@H]3O[C@H](COCC(=O)O)[C@@H](O[C@@H]4C[C@H](COCC(=O)O)[C@@H](C)[C@H](O)[C@H]4N(Cc4ccc(O)c(OC)c4)CC(O)C[N+](C)(C)C)[C@H](O)[C@H]3N(Cc3ccc(O)c(OC)c3)CC(O)C[N+](C)(C)C)[C@@H](COCC(=O)O)O[C@H]2C)ccc1O", "dose": "1 mg/mL", "method": "agar diffusion", "strain": "RCMB 02568", "result": "17.5 mm"}
{"structure": "Cc1ccc(-n2cc(-c3ccc([N+](=O)[O-])cc3)c(-c3ccn[nH]3)n2)cc1", "dose": "1.25 mg/mL", "method": "agar diffusion / agar", "result": "3 mm"}
{"structure": "Nc1ccccc1C(=O)Nc1ccc(F)cc1", "dose": "25 µg/mL", "method": "agar diffusion", "strain": "RCMB 02003", "result": "11.9 mm"}
{"structure": "Cc1ccc(-n2cc(-c3ccc([N+](=O)[O-])cc3)c(C(=O)/C=C/N(C)C)n2)cc1", "dose": "5 mg/mL", "method": "agar diffusion / agar", "result": "8 mm"}
{"structure": "N#Cc1ccc(Nc2nc(Oc3cccc4cccnc34)nc(N3CCN(c4cccc(Cl)c4)CC3)n2)cc1C(F)(F)F", "dose": "100 µg/disc", "method": "agar diffusion / agar", "strain": "MTCC 343", "result": "23 mm"}
{"structure": "C[C@@H]1[C@@H](COCC(=O)O)C[C@@H](O[C@H]2[C@H](O)[C@@H](N(Cc3ccccc3Cl)CC(O)C[N+](C)(C)C)[C@H](O[C@H]3[C@H](O)[C@@H](N(Cc4ccccc4Cl)CC(O)C[N+](C)(C)C)[C@H](C)O[C@@H]3COCC(=O)O)O[C@@H]2COCC(=O)O)[C@H](N(Cc2ccccc2Cl)CC(O)C[N+](C)(C)C)[C@H]1O", "dose": "1 mg/mL", "method": "agar diffusion", "strain": "RCMB 02568", "result": "17.5 mm"}
{"structure": "CN1CCN(c2nc(Nc3ccc(C#N)c(C(F)(F)F)c3)nc(Oc3ccnc4ccccc34)n2)CC1", "dose": "100 µg/mL", "strain": "MTCC 343", "result": "<10 mm"}
{"structure": "N#Cc1ccc(Nc2nc(Oc3cccc4cccnc34)nc(N3CCN(c4cccc(Cl)c4Cl)CC3)n2)cc1C(F)(F)F", "dose": "100 µg/disc", "method": "agar diffusion / agar", "strain": "MTCC 343", "result": "25 mm"}
{"structure": "CCC(C)CCCCCCCCCCC(=O)N[C@H]1C[C@@H](O)[C@@H](Sc2ccccc2)NC(=O)C2[C@@H](O)[C@@H](C)CN2C(=O)C(CO)NC(=O)C([C@H](O)C(O)c2ccc(O)cc2)NC(=O)NC(=O)[C@@H]2C[C@@H](O)CN2C(=O)[C@H]([C@@H](C)O)NC1=O", "dose": "5 mg/mL", "method": "agar", "strain": "AF-1", "result": "21 mm"}
{"structure": "O=C(c1cn2cnnc2nn1)c1nn(-c2ccccc2)cc1-c1ccc([N+](=O)[O-])cc1", "dose": "1.25 mg/mL", "method": "agar diffusion / agar", "result": "3 mm"}
{"structure": "CCC(C)CCCCCCCCCCC(=O)N[C@H]1C[C@@H](O)[C@@H](OC)NC(=O)C2[C@@H](O)[C@@H](C)CN2C(=O)C(CO)NC(=O)C([C@H](O)C(O)c2ccc(O)cc2)NC(=O)NC(=O)[C@@H]2C[C@@H](O)CN2C(=O)[C@H]([C@@H](C)O)NC1=O", "dose": "2 mg/mL", "method": "agar", "strain": "AF-1", "result": "24–37 mm"}
{"structure": "Brc1ccc2c(c1)Sc1cccnc1N2CCCCN1c2ccc(Br)cc2Sc2cccnc21", "dose": "100 µg/mL", "strain": "MTCC 343", "result": "12 mm"}
{"structure": "CC(=O)N1CCN(c2nc(Nc3ccc(C#N)c(C(F)(F)F)c3)nc(Oc3cccc4cccnc34)n2)CC1", "dose": "100 µg/disc", "method": "agar diffusion / agar", "strain": "MTCC 343", "result": "23 mm"}
{"structure": "COc1ccc(CN(CC(O)C[N+](C)(C)C)[C@@H]2[C@@H](O)[C@H](O[C@@H]3O[C@H](COCC(=O)O)[C@@H](O[C@@H]4C[C@H](COCC(=O)O)[C@@H](C)[C@H](O)[C@H]4N(Cc4ccc(OC)c(OC)c4)CC(O)C[N+](C)(C)C)[C@H](O)[C@H]3N(Cc3ccc(OC)c(OC)c3)CC(O)C[N+](C)(C)C)[C@@H](COCC(=O)O)O[C@H]2C)cc1OC", "dose": "1 mg/mL", "method": "agar diffusion", "strain": "RCMB 02568", "result": "13.9 mm"}
{"structure": "C[C@H]1[C@H](O)[C@@H](C)/C=C/C=C/C=C/C=C/C=C/C=C/C=C/[C@H](O[C@@H]2O[C@H](C)[C@@H](O)[C@H](N)[C@@H]2O)C[C@@H]2O[C@](O)(C[C@@H](O)C[C@@H](O)CC[C@H](O)[C@@H](O)C[C@@H](O)CC(=O)O[C@H]1C)C[C@H](O)[C@H]2C(=O)O", "dose": "5 mg/disc", "method": "agar diffusion", "result": "0 mm"}
{"structure": "CCC(C)CCCCCCCCCCC(=O)N[C@H]1C[C@@H](O)[C@@H](NCCN2CCOCC2)NC(=O)C2[C@@H](O)[C@@H](C)CN2C(=O)C(CO)NC(=O)C([C@H](O)C(NCCN2CCOCC2)c2ccc(O)cc2)NC(=O)NC(=O)[C@@H]2C[C@@H](O)CN2C(=O)[C@H]([C@@H](C)O)NC1=O", "dose": "2 mg/mL", "method": "agar", "strain": "AF-1", "result": "13 mm"}
{"structure": "COc1ccc(CN(CC(O)C[N+](C)(C)C)[C@@H]2[C@@H](O)[C@H](O[C@@H]3O[C@H](COCC(=O)O)[C@@H](O[C@@H]4C[C@H](COCC(=O)O)[C@@H](C)[C@H](O)[C@H]4N(Cc4ccc(OC)cc4)CC(O)C[N+](C)(C)C)[C@H](O)[C@H]3N(Cc3ccc(OC)cc3)CC(O)C[N+](C)(C)C)[C@@H](COCC(=O)O)O[C@H]2C)cc1", "dose": "1 mg/mL", "method": "agar diffusion", "strain": "RCMB 02568", "result": "14.5 mm"}

For reference, 3 entries again:

structure	dose	method	strain	result
C[C@@H]1[C@@H](COCC(=O)O)C[C@@H](O[C@H]2[C@H](O)[C@@H](N(Cc3ccc([N+](=O)[O-])cc3)CC(O)C[N+](C)(C)C)[C@H](O[C@H]3[C@H](O)[C@@H](N(Cc4ccc([N+](=O)[O-])cc4)CC(O)C[N+](C)(C)C)[C@H](C)O[C@@H]3COCC(=O)O)O[C@@H]2COCC(=O)O)[C@H](N(Cc2ccc([N+](=O)[O-])cc2)CC(O)C[N+](C)(C)C)[C@H]1O	1 mg/mL	agar diffusion	RCMB 02568	20.5 mm
c1ccc2c(c1)Sc1cccnc1N2CCCCCCN1c2ccccc2Sc2cccnc21	100 µg/mL		MTCC 343	10 mm
CCN1CCN(c2nc(Nc3ccc(C#N)c(C(F)(F)F)c3)nc(Oc3ccnc4ccccc34)n2)CC1	100 µg/mL	agar	MTCC 343	<10 mm